Results as given in paper PMC9606073 (Immunity, 2022).

B1: C118 IgG (antibody, V domains shown)
VH: QVQLVESGGGVVQPGRSLRLSCAASGFTFSNYAMHWVRQAPGKGLEWVAVISYDGSNKYYADSVKGRFTISRDNSKNTLYLQMNSLRAEDTAIYYCASGYTGYDYFVRGDYYGLDVWGQGTTVTVSS
VL: QPVLTQSPSASASLGASVKLTCTLSSGHSSYAIAWHQQQPEKGPRYLMKLNTDGSHSKGDGIPDRFSGSSSGAERYLTISSLQSEDEADYYCQTWGTGILVFGGGTKLTVL
notes: copies: 2 + 2
B2: M8a-3 IgG (antibody, V domains shown)
VH: QVQLQQPGAELVLPGASVKLSCKASGYTFTNYWMHWVKQRPGHGLEWIGEIDPFDTYIKINQKFKGKSTLTVDTSSSTAYMQLSSLTSEDSAVYYCARPDSSGYPVYFDYWGQGTTLTVSS
VL: DIVMTQSHKFMSTSVGDRVSITCKASQDVGTYIAWYQQKPGQSPKLLIYWASTRHTGVPDRFTGSGSGTNYTLTISSVQAEDLALYHCQQHYSTPYTFGGGTKLEIK
notes: copies: 2 + 2
B3: M8a-6 IgG (antibody, V domains shown)
VH: QVQLQQPGTELVMPGASVKLSCKTSGYTFTHYWMHWVKQRPGEGLEWIGEIAPSDNYVKYNQKFKGKSTLSVDRSSSTAYMQLSSLTSEDSAVYFCARPDNSGYPVYFDYWGQGTSLTVSS
VL: DIVMTQSQKFMSTSLGDRVSISCKASQDVGTTVAWYQQKPGQSPKLLIYWASTRHTGVPDRFTGTGSGTDYTLTISSVAAEDLALYYCQQHYNTPYTFGGGTKLEIE
notes: copies: 2 + 2
B4: M8a-34 IgG (antibody, V domains shown)
VH: QVQLQQPGAELVKPGASVKMSCKASGYTFITYWITWVKQRPGQGLEWIGDIYPGGGRTNYNEKFKSKATLTVDTSSSTAYMQLRSLTSEDSAVYYCARYDGNYVGYYYAMDYWGQGTSVTVSS
VL: DIVLTQSPVSLAVSLGQRATISCRASESVDFYGNSFIYWYQQKPGQAPKLLIYRASNLESGIPARFSGSGSRTDFTLTIHPVEADDVATYYCQQSIEDPRTFGGGTKLEIK
notes: copies: 2 + 2
B5: M8a-3 IgG (antibody, V domains shown)
VH: B2 VH
VL: B2 VL
notes: copies: 2 + 2
B6: M8a-31 IgG (antibody, V domains shown)
VH: EVQLKQSVAELVRPGASVKVSCTASGFNIKNIYMHWVKQRPEQGLDWIGRIDPANGNSRYAPKFQDKATITADTSSNTAYLQLSSLTSEDTAIYYCADEGWGFANWGQGTLVTVSA
VL: DIVMTQSPSSLTVTAGEKVTMSCKSSQSLLNSGNQKNYLTWYQQKVGQPPKLLIYWASTRDPGVPDRFTGSGFGTDFTLTISSVQAEDLAVYYCQNDYSYPLTFGAGTKVELK
notes: copies: 2 + 2

Columns and labels:
Details in all cases: both partners purified
SARS-CoV RBD [1] = biological target: SARS-CoV RBD (SARS-CoV (GenBank AAP13441.1), UniProt P59594)
BM4831-CoV RBD [2] = biological target: BM4831-CoV RBD (Bat coronavirus BM48-31/BGR/2008, strain); test: SPR
Khosta2 RBD [3] = biological target: Khosta2 RBD (Bat SARS-like coronavirus Khosta-2, strain); test: SPR
SARS-CoV RBD [4] = biological target: SARS-CoV RBD (SARS-CoV (GenBank AAP13441.1), UniProt P59594); remark: listed apart in the source
BM4831-CoV RBD [5] = biological target: BM4831-CoV RBD (Bat coronavirus BM48-31/BGR/2008); test: ELISA
BtKY72-CoV RBD = BtKY72-CoV RBD (BtKY72 bat sarbecovirus (KY352407), UniProt A0A3Q8AKM0); test: ELISA
Khosta2 RBD [6] = biological target: Khosta2 RBD (Bat SARS-like coronavirus Khosta-2); test: ELISA

| Binder | Kd (SARS-CoV RBD [1]) [nM] | koff (SARS-CoV RBD [1]) [s⁻¹] | kon (SARS-CoV RBD [1]) [M⁻¹ s⁻¹] | Kd (Khosta2 RBD [3]) [nM] | koff (Khosta2 RBD [3]) [s⁻¹] | kon (Khosta2 RBD [3]) [M⁻¹ s⁻¹] | binding result (SARS-CoV RBD [4]) | binding result (BM4831-CoV RBD [5]) | binding result (BtKY72-CoV RBD) | binding result (Khosta2 RBD [6]) | other results |
| --- | --- | --- | --- | --- | --- | --- | --- | --- | --- | --- | --- |
| B1 | 110 | 0.0069 | 60000 | 33 | 0.0011 | 34000 | – | – | – | – | Kd (BM4831-CoV RBD [2]): 7.9 nM; koff (BM4831-CoV RBD [2]): 0.00085 s⁻¹; kon (BM4831-CoV RBD [2]): 110000 M⁻¹ s⁻¹ |
| B2 | 0.41 | 0.00015 | 380000 | 35 | 0.0046 | 130000 | – | – | – | – | – |
| B3 | 1100 | – | – | – | – | – | – | – | – | – | – |
| B4 | – | – | – | – | – | – | binds | binds | binds | binds | – |
| B5 | – | – | – | – | – | – | – | – | binds | – | – |
| B6 | – | – | – | – | – | – | binds | binds | binds | binds | – |
